Measured values from several laboratories, pooled; numbers as filed in NIAID ChemDB.

All rows: growth or infection tests; agent: Aspergillus niger

Blank or dashed fields: not listed here. Rows are shuffled and stem from different studies. A number after MIC or MFC names an inhibition level or a share of isolates.

smiles,measure,conditions,read by,strain,result
COC(=O)/C=C/c1ccc(OC)cc1,MIC,,broth dilution / resazurin,ATCC 16404,500 µg/mL
O=C1CSC(N2N=C(c3ccccc3)CC2c2cc3ccccc3nc2Cl)=N1,MIC100,,,MTCC 282,1000 µg/mL
O=C(COc1ccc(F)cc1)c1ccccc1,MIC,48 h,broth dilution,ATCC 16404,>125 µg/mL
O=C1CSC(N2N=C(c3ccccc3F)CC2c2cc3ccccc3nc2Cl)=N1,MIC100,,,MTCC 282,250 µg/mL
O=C(O)CCCNCC(=O)Nc1cccc2c1C(=O)c1ccccc1C2=O,MIC,,,VKM F-1119,1.9 µg/mL
Cc1ccc(N2NOC(=O)C2S(=O)(=O)Nc2nc3ccc([N+](=O)[O-])cc3s2)cc1,MIC,,broth dilution,MTCC 282,200 µg/mL
O=C(/C=C/c1ccc(OCCCCCCCCCCOc2ccc(/C=C/C(=O)c3ccccc3)cc2)cc1)c1ccccc1,MIC,,broth dilution,,4 µg/mL
Cc1ncc(-c2ccc(I)cc2C(=O)N[C@H](C(=O)N[C@@H](C)C(=O)N[C@@H](Cc2cnc[nH]2)C(=O)N2CCC[C@H]2C(=O)O)[C@@H](C)O)[nH]1,MIC,,,,12.5 µg/mL
N#CSc1ccc2nc(NC(=O)CN3C(=O)S/C(=C/c4ccccc4Cl)C3=O)sc2c1,MIC,,broth dilution / visual reading,MTCC 282,500 µg/mL
O=C(N/N=C/c1cc([N+](=O)[O-])ccc1O)c1ccc(I)cc1,MIC,,,Strain 1,0.4 µg/mL
COC(=O)[C@H](Cc1ccc(O)cc1)NC(=O)COc1cc(=O)oc2ccccc12,MIC,,,,12.5 µg/mL
Cc1ccc(NC(=O)CCN2C(=O)S/C(=C\c3ccccc3)C2=O)c(Cl)c1,MIC,,,,25 µg/mL
Cc1nn(-c2ccccc2)c2c1C(c1cccc(Cl)c1)C(C#N)=C(N)O2,MIC,,,MTCC 282,>1000 µg/mL
C=CCSS(=O)CC=C,MIC50,,broth dilution,ATCC 16888,125 µg/mL
O=C(NN1C(=O)/C(=C\c2ccc(Cl)cc2)SC1c1cccc(Br)c1)c1ccc(-c2ccccc2)cc1,MIC,,,MTCC 8189,3.12 µg/mL
Cc1ccc(/C=C2\SC(=O)N(CCC(=O)Nc3ccccc3O)C2=O)c(C)c1,MIC,,,,25 µg/mL
Cc1ccc(N2NOC(=O)C2S(=O)(=O)Nc2ccc(-n3c(-c4ccccc4Cl)nc4ccccc4c3=O)cc2)cc1,MIC,,broth dilution,MTCC 282,500 µg/mL
c1ccc(C2=NN(c3ccccc3)C(c3ccc(OCCCCOc4ccc(C5CC(c6ccccc6)=NN5c5ccccc5)cc4)cc3)C2)cc1,MIC,,broth dilution,,6 µg/mL
CC1CCC(C(C)C)C(OC(=O)c2ccc([N+](=O)[O-])cc2)C1,MIC,,,,6.61 µM
COc1ccc(Cc2cn(Cc3ccc(O)cc3)c(/N=C3/NC(=O)N(C)C3=O)n2)cc1,MIC,,,ATCC 9642,>100 µg/mL
Clc1ccc(CO[C@H](Cn2ccnc2)c2ccc(Cl)cc2Cl)c(Cl)c1,MIC,,broth dilution,,>48.06 µM
N#CSc1ccc2nc(NC(=O)CN3C(=O)S/C(=C/c4cccc(-c5ccco5)c4)C3=O)sc2c1,MIC,,broth dilution / visual reading,MTCC 282,250 µg/mL
O=C(CCN1C(=O)S/C(=C\c2cccc(O)c2)C1=O)Nc1ccccc1,MIC,,,,25 µg/mL
COc1ccc(OC/C(=N/O)c2ccccc2)cc1,MIC,48 h,broth dilution,ATCC 16404,>125 µg/mL
O=C(O)CNCC(=O)Nc1cccc2c1C(=O)c1ccccc1C2=O,MIC,,,VKM F-1119,1.9 µg/mL
C[C@H]1[C@H](O)[C@@H](C)/C=C/C=C/C=C/C=C/C=C/C=C/C=C/[C@H](O[C@@H]2O[C@H](C)[C@@H](O)[C@H](N)[C@@H]2O)C[C@@H]2O[C@](O)(C[C@@H](O)C[C@@H](O)CC[C@H](O)[C@@H](O)C[C@@H](O)CC(=O)O[C@H]1C)C[C@H](O)[C@H]2C(=O)O,MIC,,absorbance,ATCC 16404,0.5 µg/mL
O=[N+]([O-])c1ccc(N/N=C/C=C/c2ccccc2)c([N+](=O)[O-])c1,MIC,,agar,,30 µg/mL
c1ccc(C2=NN(c3ccccc3)C(c3ccc(OCCCCCCOc4ccc(C5CC(c6ccccc6)=NN5c5ccccc5)cc4)cc3)C2)cc1,MIC,,broth dilution,,16 µg/mL
N#CSc1ccc2nc(NC(=O)CN3C(=O)S/C(=C/c4cccc(Br)c4)C3=O)sc2c1,MIC,,broth dilution / visual reading,MTCC 282,1000 µg/mL
O=C(/C=C/c1ccc(OCCCCCCCCCCCCOc2ccc(/C=C/C(=O)c3ccccc3)cc2)cc1)c1ccccc1,MIC,,broth dilution,,8 µg/mL
CC(=O)OC1CC(C)CCC1C(C)C,MIC,,,,10.47 µM
Cc1nn(-c2ccccc2)c2c1C(c1ccccc1Cl)c1c(nc(=S)[nH]c1N)O2,MIC,,,MTCC 282,>1000 µg/mL
COc1ccc(C(=O)OC2CC(C)CCC2C(C)C)cc1,MIC,,,,9.12 µM
COc1ccc(/C=C2/SC(c3cccc(Br)c3)N(NC(=O)c3ccc(-c4ccccc4)cc3)C2=O)cc1,MIC,,,MTCC 8189,3.12 µg/mL
CC1CCC(C(C)C)C(OC(=O)c2cccc(Cl)c2)C1,MIC,,,,10.72 µM
O=C(CCN1C(=O)S/C(=C\c2ccccc2)C1=O)Nc1cccc(O)c1,MIC,,,,6.25 µg/mL
O=C(COc1cc(=O)oc2ccccc12)N[C@@H](Cc1ccc(O)cc1)C(=O)O,MIC,,,,12.5 µg/mL
[Br][Cd][Br].c1cnc2c(SCc3ccncc3)cccc2c1,MIC,,broth dilution / visual reading,,>238 µM
CC1CCC(C(C)C)C(OC(=O)c2cccc(Br)c2)C1,MIC,,,,9.12 µM
c1ccc(CSc2cccc3cccnc23)nc1,MIC,,broth dilution / visual reading,,>495 µM
Cc1cc(=O)oc2c(C=Nc3cccc4cccc(N=Cc5c(O)ccc6c(C)cc(=O)oc56)c34)c(O)ccc12,MIC,,,MTCC 1881,10 µg/mL
O=C(NN1C(=O)/C(=C\c2cccc([N+](=O)[O-])c2)SC1c1ccc(F)cc1)c1ccc(-c2ccccc2)cc1,MIC,,,MTCC 8189,6.25 µg/mL
CC(C)C(NCC(=O)Nc1cccc2c1C(=O)c1ccccc1C2=O)C(=O)O,MIC,,,VKM F-1119,>500 µg/mL
O=C1CSC(N2N=C(c3ccccc3Cl)CC2c2cc3ccccc3nc2Cl)=N1,MIC100,,,MTCC 282,50 µg/mL
CC(C)CC(NCC(=O)Nc1cccc2c1C(=O)c1ccccc1C2=O)C(=O)O,MIC,,,VKM F-1119,125 µg/mL
COC(=O)[C@H](C)OC(=O)[C@H](Cc1cnc[nH]1)NC(=O)CNC(=O)[C@H](Cc1cnc[nH]1)NC(=O)COc1c(Br)c(=O)oc2ccccc12,MIC,,,,12.5 µg/mL
O=C(CCN1C(=O)S/C(=C\c2ccccc2Br)C1=O)Nc1ccccc1O,MIC,,,,25 µg/mL
CC1CCC(C(C)C)C(OC(=O)/C=C/c2ccccc2[N+](=O)[O-])C1,MIC,,,,4.68 µM
CCOc1ccc2nc(NS(=O)(=O)C3C(=O)ONN3c3ccc(C)cc3)sc2c1,MIC,,broth dilution,MTCC 282,500 µg/mL
COc1ccc(/C=C2/SC(c3ccccc3)N(NC(=O)c3ccc(-c4ccccc4)cc3)C2=O)cc1,MIC,,,MTCC 8189,1.56 µg/mL
CC1CCC(C(C)C)C(OC(=O)c2ccc(Cl)cc2Cl)C1,MIC,,,,11.22 µM
Cc1cc(=O)oc2c(C=NCCN=Cc3c([O-])ccc4c(C)cc(=O)oc34)c([O-])ccc12.[O]=[V+2],MIC,,,,10 µg/mL
Cc1ccc(N2NOC(=O)C2S(=O)(=O)Nc2nc3c([N+](=O)[O-])cccc3s2)cc1,MIC,,broth dilution,MTCC 282,1000 µg/mL
Cc1cccc(C(=O)OC2CC(C)CCC2C(C)C)c1,MIC,,,,9.33 µM
COc1ccccc1OCC(=O)c1ccccc1,MIC,48 h,broth dilution,ATCC 16404,>125 µg/mL
O=C(/C=C/c1ccc(OCCCCOc2ccc(/C=C/C(=O)c3ccccc3)cc2)cc1)c1ccccc1,MIC,,broth dilution,,16 µg/mL
O=C1CSC(N2N=C(c3ccc([N+](=O)[O-])cc3)CC2c2cc3ccccc3nc2Cl)=N1,MIC100,,,MTCC 282,25 µg/mL
c1ccc(C2=NN(c3ccccc3)C(c3ccc(OCCCOc4ccc(C5CC(c6ccccc6)=NN5c5ccccc5)cc4)cc3)C2)cc1,MIC,,broth dilution,,16 µg/mL
Cc1ccc(N2NOC(=O)C2S(=O)(=O)Nc2ccc(-n3c(-c4cccc(Br)c4)nc4ccccc4c3=O)cc2)cc1,MIC,,broth dilution,MTCC 282,1000 µg/mL
Cc1cc(=O)oc2c(C=Nc3ccccc3N=Cc3c([O-])ccc4c(C)cc(=O)oc34)c([O-])ccc12.[O]=[V+2],MIC,,,,10 µg/mL
O=C1CSC(N2N=C(c3cccc([N+](=O)[O-])c3)CC2c2cc3ccccc3nc2Cl)=N1,MIC100,,,MTCC 282,100 µg/mL
Cc1nn(-c2ccccc2)c2c1C(c1cccc(Br)c1)c1c(nc(=S)[nH]c1N)O2,MIC,,,MTCC 282,500 µg/mL
Cc1ccc(NC(=O)CCN2C(=O)S/C(=C\c3ccccc3Cl)C2=O)cc1,MIC,,,,>100 µg/mL
CC1CCC(C(C)C)C(OC(=O)c2ccc([N+](=O)[O-])cc2[N+](=O)[O-])C1,MIC,,,,8.91 µM
COc1ccc(C2c3c(nc(=S)[nH]c3N)Oc3c2c(C)nn3-c2ccccc2)cc1,MIC,,,MTCC 282,>1000 µg/mL
O/N=C(/COc1cccc(Cl)c1)c1ccccc1,MIC,72 h,broth dilution,ATCC 16404,>125 µg/mL
O=C(NN1C(=O)/C(=C\c2ccc(Cl)cc2)SC1c1ccccc1)c1ccc(-c2ccccc2)cc1,MIC,,,MTCC 8189,3.12 µg/mL
c1ccc(C2=NN(c3ccccc3)C(c3ccc(OCCCCCCCCCCCCOc4ccc(C5CC(c6ccccc6)=NN5c5ccccc5)cc4)cc3)C2)cc1,MIC,,broth dilution,,8 µg/mL
O/N=C(/COc1cccc(F)c1)c1ccccc1,MIC,48 h,broth dilution,ATCC 16404,>125 µg/mL
CCC(C)CC(C)CCCCCCCCC(=O)N[C@H]1C[C@@H](O)[C@H](NCCN)NC(=O)[C@@H]2[C@@H](O)CCN2C(=O)[C@H]([C@H](O)CCN)NC(=O)[C@H]([C@H](O)[C@@H](O)c2ccc(O)cc2)NC(=O)[C@@H]2C[C@@H](O)CN2C(=O)[C@H]([C@@H](C)O)NC1=O,MIC,,broth dilution,21,128 µg/mL
C/C=C/CN=C(N)NCCCCCCCN1CCCCCCCCN=C(N)NC1=O,MIC50,,,,18 µM
COc1cccc(OCC(=O)c2ccccc2)c1,MIC,48 h,broth dilution,ATCC 16404,>125 µg/mL
O=C(O)CCC(NCC(=O)Nc1cccc2c1C(=O)c1ccccc1C2=O)C(=O)O,MIC,,,VKM F-1119,>500 µg/mL
c1ccc(C2=NN(c3ccccc3)C(c3ccc(OCCCCCCCCCCOc4ccc(C5CC(c6ccccc6)=NN5c5ccccc5)cc4)cc3)C2)cc1,MIC,,broth dilution,,32 µg/mL
Cc1ncc(-c2ccc(I)cc2C(=O)N[C@@H](Cc2ccccc2)C(=O)NCC(=O)N[C@@H](Cc2ccccc2)C(=O)O)[nH]1,MIC,,,,50 µg/mL
Cc1nn(-c2ccccc2)c2c1C(c1ccccc1Cl)c1c(nc(=O)[nH]c1N)O2,MIC,,,MTCC 282,>1000 µg/mL
COC(=O)[C@H](CC(C)C)NC(=O)CNC(=O)[C@@H](NC(=O)[C@H](Cc1ccccc1)NC(=O)COc1cc(=O)oc2ccccc12)[C@@H](C)O,MIC,,,,12.5 µg/mL
O=C1CSC(N2N=C(c3ccc(F)cc3)CC2c2cc3ccccc3nc2Cl)=N1,MIC100,,,MTCC 282,50 µg/mL

For reference, 10 entries again:

| smiles | measure | conditions | read by | strain | result |
|---|---|---|---|---|---|
| CC1CCC(C(C)C)C(OC(=O)c2cccc(Cl)c2)C1 | MIC |  |  |  | 10.72 µM |
| Cc1cc(=O)oc2c(C=Nc3cccc4cccc(N=Cc5c(O)ccc6c(C)cc(=O)oc56)c34)c(O)ccc12 | MIC |  |  | MTCC 1881 | 10 µg/mL |
| CC1CCC(C(C)C)C(OC(=O)c2ccc([N+](=O)[O-])cc2)C1 | MIC |  |  |  | 6.61 µM |
| Cc1nn(-c2ccccc2)c2c1C(c1cccc(Cl)c1)C(C#N)=C(N)O2 | MIC |  |  | MTCC 282 | >1000 µg/mL |
| Cc1nn(-c2ccccc2)c2c1C(c1ccccc1Cl)c1c(nc(=O)[nH]c1N)O2 | MIC |  |  | MTCC 282 | >1000 µg/mL |
| CC(=O)OC1CC(C)CCC1C(C)C | MIC |  |  |  | 10.47 µM |
| [Br][Cd][Br].c1cnc2c(SCc3ccncc3)cccc2c1 | MIC |  | broth dilution / visual reading |  | >238 µM |
| O=C(COc1ccc(F)cc1)c1ccccc1 | MIC | 48 h | broth dilution | ATCC 16404 | >125 µg/mL |
| Cc1ccc(NC(=O)CCN2C(=O)S/C(=C\c3ccccc3Cl)C2=O)cc1 | MIC |  |  |  | >100 µg/mL |
| Cc1ncc(-c2ccc(I)cc2C(=O)N[C@H](C(=O)N[C@@H](C)C(=O)N[C@@H](Cc2cnc[nH]2)C(=O)N2CCC[C@H]2C(=O)O)[C@@H](C)O)[nH]1 | MIC |  |  |  | 12.5 µg/mL |